US20090143313A1 (priority 2004, published 2009)

Test system: guinea pig-adapted PIC (Pichinde virus)
Assay: Pilot studies of SCV-07 in PIC-infected guinea pigs (Examples 1 and 2)

For N[C@H](CCC(=O)N[C@@H](Cc1c[nH]c2ccccc12)C(=O)O)C(=O)O [SCV-07, γ-D-glutamyl-L-tryptophan], the “Survival curve vs control animals (group 0), Kaplan-Meier log-rank p” value (Group 2: 1 μg/kg i.p. once on the same day as infection) was 0.77, the “Average percent weight gain by PIC-infected guinea pigs 10-11 dpi, Mean ± Std Dev” value (Group 2: 1 μg/kg i.p. once on the same day as infection, 100 pfu PIC i.p.) was −3.75 ± 12.48% and the Mortality vs controls (Group 6: 100 μg/kg i.p. on each of the first five days after infection) was “Mortality was decreased”. For the same compound, the Mortality vs controls (Groups 1-3: 1 μg/kg i.p. before, on the day of or the day after infection, trend, not significant) was “decreased mortality”.
